The record followed here is US5519028A, “Antiviral preparations” (priority 1992, dated 1996).

The subject of this series is HIV-1. To be noted: human, pbmc.

Take `CCc1ccc2c3[nH]c4ccccc4c3cc[n+]2c1` [flavopereirine]: the “total-inhibition concentration weaker than cytotoxic concentrations” value is on record as 2-4 times.
